Each structure is given as a SMILES string.

Chains of the proteins cited; added tags and fusions are not shown.
UniProt P08670, whole entry: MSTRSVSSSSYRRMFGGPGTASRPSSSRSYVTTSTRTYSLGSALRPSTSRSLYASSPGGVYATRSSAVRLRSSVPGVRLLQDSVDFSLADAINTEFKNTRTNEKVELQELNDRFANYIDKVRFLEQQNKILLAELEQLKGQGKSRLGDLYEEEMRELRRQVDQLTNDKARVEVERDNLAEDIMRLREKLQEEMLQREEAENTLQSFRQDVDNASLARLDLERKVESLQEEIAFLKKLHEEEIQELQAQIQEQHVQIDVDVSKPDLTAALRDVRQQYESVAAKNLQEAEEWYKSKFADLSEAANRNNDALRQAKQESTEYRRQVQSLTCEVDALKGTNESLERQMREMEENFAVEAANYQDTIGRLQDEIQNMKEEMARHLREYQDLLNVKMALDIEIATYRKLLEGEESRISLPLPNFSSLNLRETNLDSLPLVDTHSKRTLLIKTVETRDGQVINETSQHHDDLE

One experiment deals with T1, vimentin (Homo sapiens, UniProt P08670).
T1 construct: these proteins are endogenous cellular proteins rather than viral; endogenous in cells; host or cells: MT4 cell line (untransduced, shRNA-transduced MT4vim(s), or peptide-treated)
In words: Western blot of vimentin in MT4 cells incubated with peptides. The experiment is classed as cell-based. The note with it: 50 μM peptide, 24 h. As to the method:
The MT4 cell line was incubated at 50 μM of each peptide for 24 h. The vimentin protein was detected by the western blot technique. Cellular extracts were resuspended in 1% sodium dodecyl sulphate (SDS) and applied in a 10% polyacrylamide gel, being further transferred to a Hybond-P […] membrane. For immunoidentification purposes, anti-vimentin and anti-β actin (as control) antibodies were used. An anti-mouse IgG antibody-peroxidase conjugate was used as secondary antibody. The activity of the peroxidase enzyme was visualized by using diaminobenzidine in the presence of hydrogen peroxide and PBS.

The test system of another experiment is HIV-2 CBL-20 strain. In words: HIV-2 replication in pre-stimulated PBMCs, p24. The experiment is classed as cell-based. The note with it: 7 days. As to the method:
PBMCs were isolated from whole blood of healthy individuals by using Ficoll density gradients. […] Cells were subsequently maintained in PHA-free medium and seeded at 150 000 cells per well in 96-well plates. After 24 h, peptides were added at different concentrations and the cultures were infected with the CBL-20 HIV-2 strain. The cultures were kept for 7 days, being changed every 3 days the medium and the peptides added. Cultures were harvested and supernatants collected to evaluate the presence of the p24 viral protein.

A further experiment concerns HIV-1. The note with it: PBMCs of infected individuals treated ex vivo; 15d-PGJ2 at 5 μM; vs untreated cells.

For `CC[C@H](C)[C@H](NC(=O)[C@H](Cc1ccc(O)cc1)NC(=O)[C@H](CC(N)=O)NC(=O)[C@H](C)NC(=O)[C@@H](N)Cc1ccccc1)C(=O)N[C@@H](CC(=O)O)C(=O)N[C@@H](CCCCN)C(=O)N[C@H](C(=O)N[C@@H](CCCNC(=N)N)C(=O)N[C@@H](Cc1ccccc1)C(=O)N[C@@H](CC(C)C)C(=O)N[C@@H](CCC(=O)O)C(=O)N[C@@H](CCC(N)=O)C(=O)N[C@@H](CCC(N)=O)C(=O)N[C@@H](CC(N)=O)C(=O)N[C@@H](CCCCN)C(=O)N[C@H](C(=O)N[C@@H](CC(C)C)C(=O)N[C@@H](CC(C)C)C(=O)N[C@@H](C)C(=O)O)[C@@H](C)CC)C(C)C` [Peptide 5], the vimentin band intensity result at vimentin is listed as “decreased intensity”. For the same compound, the HIV-2 replication entry in the experiment with HIV-2 CBL-20 strain was “inhibited HIV-2 replication in a dose-dependent manner”. Besides, the “% of HIV-1 inhibition” value in the experiment on HIV-1 is given as 82.1%.
For the compound `CC[C@H](C)[C@H](NC(=O)[C@H](Cc1ccc(O)cc1)NC(=O)[C@H](CC(N)=O)NC(=O)[C@H](C)NC(=O)[C@H](Cc1ccccc1)NC(=O)[C@H](CCCNC(=N)N)NC(=O)[C@H](CC(=O)O)NC(=O)[C@H](CC(N)=O)NC(=O)[C@H](CC(C)C)NC(=O)[C@@H](N)CCC(=O)O)C(=O)N[C@@H](CC(=O)O)C(=O)N[C@@H](CCCCN)C(=O)N[C@H](C(=O)N[C@@H](CCCNC(=N)N)C(=O)N[C@@H](Cc1ccccc1)C(=O)N[C@@H](CC(C)C)C(=O)N[C@@H](CCC(=O)O)C(=O)N[C@@H](CCC(N)=O)C(=O)N[C@@H](CCC(N)=O)C(=O)N[C@@H](CC(N)=O)C(=O)O)C(C)C` [Peptide 4], the vimentin band intensity entry at vimentin was “decreased intensity”. In the experiment on HIV-2 CBL-20 strain, the HIV-2 replication result is reported as “inhibited HIV-2 replication in a dose-dependent manner”. The “% of HIV-1 inhibition” value in the experiment with HIV-1 is listed as 84.9%.
Turning to `CC[C@H](C)[C@H](NC(=O)[C@H](CCCCN)NC(=O)[C@H](CC(N)=O)NC(=O)[C@H](CCC(N)=O)NC(=O)[C@H](CCC(N)=O)NC(=O)[C@H](CCC(=O)O)NC(=O)[C@H](CC(C)C)NC(=O)[C@H](Cc1ccccc1)NC(=O)[C@H](CCCNC(=N)N)NC(=O)[C@@H](NC(=O)[C@H](CCCCN)NC(=O)[C@@H](N)CC(=O)O)C(C)C)C(=O)N[C@@H](CC(C)C)C(=O)N[C@@H](CC(C)C)C(=O)N[C@@H](C)C(=O)N[C@@H](CCC(=O)O)C(=O)N[C@@H](CC(C)C)C(=O)N[C@@H](CCC(=O)O)C(=O)N[C@@H](CCC(N)=O)C(=O)N[C@@H](CC(C)C)C(=O)O` [Peptide 6], the HIV-2 replication result in the experiment on HIV-2 CBL-20 strain is “inhibited HIV-2 replication in a dose-dependent manner”. For the same compound, the “% of HIV-1 inhibition” value with HIV-1 was determined as 80.5%.

Source of the values: patent US9205128B2, “Method for inhibiting HIV replication in mammal and human cells” (priority 2010, dated 2015).
